A mixed list of measured activities; the numbers were collected in NIAID ChemDB.

Shared fields: cytotoxicity tests; cell line: C8166; read by: MTT; measure: CC50

CCn: concentration that lowers growth or viability of the cells by n%.

CC(C)(C)NC(=O)[C@@H]1C[C@@H]2CCCC[C@@H]2CN1C[C@@H](O)[C@H](Cc1ccccc1)NC(=O)[C@H](CC(N)=O)NC(=O)c1ccc2ccccc2n1 ; value: 27.5 µM
CC(C)(C)c1ccc(OC2=C(C=O)CC[C@@H]3[C@H]4CCCN5CCC[C@@H](CN23)[C@@H]45)cc1 ; value: >200 µg/mL
Cc1ccc(-c2c[nH]c(=S)n2NC(=S)Nc2ccc(Cl)cc2)cc1 ; value: 105 µM
O=C(c1ccccc1)c1c(O)cc(O)c([C@@H]2O[C@H](CO)[C@@H](O)[C@H](O)[C@H]2O)c1O ; value: >200 µg/mL
C[C@@H]1C(=O)[C@@]2(C)CC[C@]34C[C@]56OC(=O)C[C@H]5O[C@@](C)(CO)[C@@H]6C[C@@H]5O[C@@]53C(=O)[C@@]3(O[C@@]5(C[C@H](C)C(=O)O5)[C@@H]1[C@H]32)O4 ; value: 83 µg/mL
Cc1ccc(NC(=S)Nn2c(-c3ccc(Br)cc3)c[nH]c2=S)c(C)c1 ; value: 19.91 µM
C=C(C)[C@@]12OC3(c4ccccc4)O[C@@H]1[C@@H]1[C@@H]4O[C@]4(CO)[C@@H](O)[C@]4(O)C(=O)C(C)=C[C@H]4[C@@]1(O3)[C@H](C)[C@H]2OC(=O)/C=C/C=C/[C@@H]1O[C@@H]1CCC ; value: 26.4 µM
Cc1ccc(OC2=C(C=O)CC[C@@H]3[C@H]4CCCN5CCC[C@@H](CN23)[C@@H]45)cc1 ; value: 78.51 µg/mL
Cc1cn([C@H]2C[C@H](N=[N+]=[N-])[C@@H](CO)O2)c(=O)[nH]c1=O ; value: 749.9 µM
Cc1ccc(-c2c[nH]c(=S)n2NC(=S)Nc2ccccc2C)cc1 ; value: 110 µM
C=C(C)[C@]12C[C@@H](C)[C@@]34OC(c5ccccc5)(O[C@@H]1[C@@H]3[C@@H]1O[C@]1(CO)[C@@H](O)[C@@]1(O)[C@H]4C[C@H](C)[C@@H]1OC(=O)/C=C/c1ccccc1)O2 ; value: 125.4 µM
Cc1cn([C@H]2C[C@H](N=[N+]=[N-])[C@@H](CO)O2)c(=O)[nH]c1=O ; value: >500 µg/mL
CCN1c2ncc(COc3ccncc3)cc2C(=O)N(C)c2ccc(Cl)nc21 ; value: >120 µM
O=C(O[C@@H]1Cc2c(O)cc(O)cc2O[C@@H]1c1ccc(O)c(O)c1)c1cc(O)c(O)c(O)c1 ; value: 185 µg/mL
Cc1cc(S(N)(=O)=O)ccc1NC(=O)COc1ccccc1NS(=O)(=O)c1ccc(Cl)cc1 ; value: 184 µM
O=CC1=C(Cl)N2C[C@@H]3CCCN4CCC[C@@H]([C@H]34)[C@H]2CC1 ; value: 41.3 µg/mL
CC[C@@]1(O)C(=O)OCc2c1cc1n(c2=O)Cc2cc3cc(O)ccc3nc2-1 ; value: 0.1409 µg/mL
C=C(C)[C@@]12OC3(/C=C/C=C/CCCCC)O[C@@H]1[C@@H]1[C@@H]4O[C@]4(CO)[C@@H](O)[C@]4(O)C(=O)C(C)=C[C@H]4[C@@]1(O3)[C@H](C)[C@H]2OC(=O)/C=C/c1ccc(O)c(OC)c1 ; value: 19.1 µM
Cc1ccc(S(=O)(=O)Nc2cc(Cl)ccc2OCC(=O)Nc2ccc(S(N)(=O)=O)cc2)cc1 ; value: 196 µM
C=C(C)[C@]12C[C@@H](C)[C@@]34OC(c5ccccc5)(O[C@@H]1[C@@H]3[C@@H]1O[C@]1(CO)[C@@H](O)[C@@]1(O)[C@H]4C[C@H](C)[C@@H]1OC(=O)c1ccccc1)O2 ; value: 31.8 µM
O=C(c1ccccc1)c1c(O)cc(O)cc1O[C@@H]1O[C@H](CO)[C@@H](O)[C@H](O)[C@H]1O ; value: >200 µg/mL
CC(=O)OC(C1CC(C)C(=O)O1)C(C)C1C2C3(O)OC4(CCC12C)C(=CCC1C(C)(C)OC2CC(=O)OC21C4O)C3=O ; value: 126.5 µg/mL
Cc1ccc(S(=O)(=O)Nc2ccccc2OCC(=O)Nc2ccc(S(N)(=O)=O)cc2C)cc1 ; value: 181 µM
O=C1/C(=C\Oc2ccc([N+](=O)[O-])cc2)CC[C@@H]2[C@H]3CCCN4CCC[C@@H](CN12)[C@@H]34 ; value: 97.96 µg/mL
Cc1cc(S(N)(=O)=O)ccc1NC(=O)COc1ccc(Cl)cc1NS(=O)(=O)c1ccc([N+](=O)[O-])cc1 ; value: 172 µM
C/C=C(/C)C(=O)O[C@H]1c2cc3c(c4c2C2(CO4)C(=O)C(OC)=C(OC)C=C2C[C@@H](C)[C@H]1C)OCO3 ; value: 82.1 µg/mL
O=Cc1ccc(O/C=C2/CC[C@@H]3[C@H]4CCCN5CCC[C@@H](CN3C2=O)[C@@H]45)cc1 ; value: 98.97 µg/mL
C=C(C)[C@]12C[C@@H](C)[C@@]34OC(c5ccccc5)(O[C@@H]1[C@@H]3[C@@H]1O[C@]1(CO)[C@@H](O)[C@@]1(O)[C@H]4C[C@H](C)[C@@H]1OC(=O)/C=C/C=C/C=C/CCC)O2 ; value: 91.3 µM
CC(C)[C@H](NC(=O)c1ccc2ccccc2n1)C(=O)N[C@@H](Cc1ccccc1)[C@H](O)CN1CC[C@@H](OCc2ccncc2)C[C@H]1C(=O)NC(C)(C)C ; value: 32 µM
C=C(C)[C@@]12OC3(/C=C/C=C/C=C/CCC)O[C@@H]1[C@@H]1[C@@H]4O[C@]4(CO)[C@@H](O)[C@]4(O)C(=O)C(C)=C[C@H]4[C@@]1(O3)[C@H](C)[C@H]2OC(=O)/C=C/c1ccc(O)c(OC)c1 ; value: 19.8 µM
COc1ccc(S(=O)(=O)Nc2ccccc2OCC(=O)Nc2ccc(S(N)(=O)=O)cc2)cc1 ; value: >407 µM
COC1=C(OC)C(=O)C23C(=C1)C[C@@H](C)[C@]2(C)[C@@H](O)c1cc2c(c(OC)c13)OCO2 ; value: >200 µg/mL
COc1ccc(OC2=C(C=O)CC[C@@H]3[C@H]4CCCN5CCC[C@@H](CN23)[C@@H]45)cc1 ; value: >200 µg/mL
Oc1cc(O)c2c(c1)O[C@H](c1ccc(O)c(O)c1)[C@H](O)C2 ; value: >200 µg/mL
Cc1cc(S(N)(=O)=O)ccc1NC(=O)COc1ccc(Cl)cc1NS(=O)(=O)c1ccccc1 ; value: >392 µM
O=CC1=C(Oc2ccc3ccccc3c2)N2C[C@@H]3CCCN4CCC[C@@H]([C@H]34)[C@H]2CC1 ; value: 69.11 µg/mL
Cc1cc(S(N)(=O)=O)ccc1NC(=O)COc1ccccc1NS(=O)(=O)c1ccc([N+](=O)[O-])cc1 ; value: 213 µM
COC1=C(OC)C(=O)C23COc4c5c(cc(c42)[C@@H](OC(=O)c2ccccc2)[C@@H](C)[C@@H](C)CC3=C1)OCO5 ; value: 69.3 µg/mL

For reference, 3 entries again:

structure | value
Cc1ccc(S(=O)(=O)Nc2ccccc2OCC(=O)Nc2ccc(S(N)(=O)=O)cc2C)cc1 | 181 µM
Cc1cc(S(N)(=O)=O)ccc1NC(=O)COc1ccc(Cl)cc1NS(=O)(=O)c1ccc([N+](=O)[O-])cc1 | 172 µM
C=C(C)[C@@]12OC3(/C=C/C=C/CCCCC)O[C@@H]1[C@@H]1[C@@H]4O[C@]4(CO)[C@@H](O)[C@]4(O)C(=O)C(C)=C[C@H]4[C@@]1(O3)[C@H](C)[C@H]2OC(=O)/C=C/c1ccc(O)c(OC)c1 | 19.1 µM

Lines come from different laboratories, so protocols vary.